Results of unrelated studies side by side (data: NIAID ChemDB).

All rows: tests in culture; agent: Herpes simplex virus 1; endpoint: EC50

Conditions beyond the fields shown may differ between rows. a–b is a range or a potency band. An empty or dashed field is not shown. ECn is the concentration giving n% inhibition of infection, replication or growth.

| structure | strain | cell line | value |
|---|---|---|---|
| COc1cc(OC)c(NC(=S)Nc2ccc(NC(C)=O)cc2)cc1Cl | Patton | HFF | >20 µM |
| O=C(O)c1ccccc1-c1nc2ccccc2n1C(=O)c1ccncc1 | KOS |  | >100 µg/mL |
| CSc1ncnc2c1cnn2Cc1cn(CCCCO)nn1 | B2006 (TK-) | E6SM | >400 µg/mL |
| CC[C@@]1(O)C[C@H](O[C@H]2C[C@H](N(C)C)[C@H](O[C@H]3C[C@H](O)[C@H](O[C@H]4CCC(=O)[C@H](C)O4)[C@H](C)O3)[C@H](C)O2)c2c(cc3c(c2O)C(=O)c2c(O)cccc2C3=O)[C@H]1C(=O)OC |  | VERO | 0.25–5 µM |
| O=c1cc(-c2ccc(-c3ccccc3)cc2)oc2ccccc12 | KOS | VERO | 2.4 µg/mL |
| O=C(c1ccncc1)n1c(-c2ccc(Cl)cc2)nc2ccccc21 | KOS |  | >20 µg/mL |
| C=C1[C@H](CO)[C@H]1Cn1cnc2c(N)ncnc21 |  |  | >100 µM |
| Cn1c2c(c(=O)n(C)c1=O)S[C@H]1[C@@H](O2)O[C@H](COc2ccccc2)[C@@H](OCc2ccccc2)[C@@H]1OCc1ccccc1 |  | VERO | >100 µM |
| COC1=C2C[C@@H](C)C[C@@H](OC)[C@@H](O)[C@H](C)/C=C(\C)[C@@H](OC(N)=O)[C@H](OC)/C=C\C=C(/C)C(=O)NC(=CC1=O)C2=O | SM44 | VERO | 0.093 µM |
| O=c1ccn(C[C@H]2C[C@H]2CO)c(=O)[nH]1 |  | VERO | >50 µM |
| c1cc(C23CC4CC(CC(C4)C2)C3)[nH]n1 | 1C | Chick embryo fibroblasts | 8.29 µg/mL |
| O=C(c1ccc([N+](=O)[O-])cc1)n1c(-c2ccc(O)cc2)nc2ccccc21 | KOS |  | >100 µg/mL |
| C=CC(CO)(CO)CCn1cnc2c(N)ncnc21 |  |  | >100 µg/mL |
| O=c1[nH]c(=O)n([C@H]2O[C@@H](CO)[C@H](O)[C@@H]2O)cc1I |  |  | >100 µM |
| O=C(c1ccc([N+](=O)[O-])cc1)n1c(-c2ccccc2)nc2ccccc21 | KOS |  | >20 µg/mL |
| Nc1ncnc2c1ncn2[C@H]1C[C@]12C[C@H]2CO |  | VERO | >50 µM |
| Nc1nc(=S)n([C@@H]2O[C@H](CO)[C@@H](O)[C@@H]2O)cc1F | KOS |  | 0.046 µg/mL |
| CCCCCCCCCCCCCCCCCCOCCOP1(=O)CO[C@@H](Cn2ccc(N)nc2=O)CO1 |  | MRC-5 | 0.005 µM |
| Nc1ccn([C@H]2C[C@](O)(CO)CO2)c(=O)n1 |  | CCL18 | >100 µM |
| Cc1cccn2c(C3OCCS3)cnc12 | B2006 (TK-) | E6SM | >1000 µM |
| Nc1nc2c(ncn2/C=C2\[C@H](CO)C2(F)F)c(=O)[nH]1 |  | BSC-1 | >100 µM |
| O=c1[nH]c(=O)n([C@@H]2C[C@@H](O)[C@H](CO)O2)cc1I |  |  | >100 µM |
| O=c1c2cc(Cl)ccc2[nH]c2cc(O)cc(O)c12 |  | VERO | 83 µM |
| Nc1ncnc2c1ncn2/C=C1/[C@H](CO)C1(F)F |  | BSC-1 | >100 µM |
| CC1(C)OCC(COC(=O)O)(CC(COC(=O)O)OC(=O)O)O1 |  | CCL18 | >100 µM |
| COC(=O)[C@H](C)NP(=O)(OC[C@@H]1C[C@]12C[C@@H]2n1cnc2c(N)ncnc21)Oc1ccccc1 |  | BSC-1 | 7 µM |
| N#CC1=CN(COCCO)S(=O)(=O)N=C1N | McIntyre | E6SM | >400 µg/mL |
| C[C@@H]1CC[C@H]2C(C)(C)[C@H](O)CC[C@]2(C)C12Cc1c(O)cc(C=O)c(C=O)c1O2 |  | VERO | 4.32 µg/mL |
| CCOC(=O)C1=CN(COCCOC(C)=O)S(=O)(=O)N=C1N | F | E6SM | >400 µg/mL |
| O=C(O)c1ccccc1-c1nc2ccccc2n1C(=O)c1ccccc1Br | KOS |  | >100 µg/mL |
| Nc1nc2c(ncn2C[C@H]2C[C@H]2[C@H](O)CO)c(=O)[nH]1 |  | VERO | >50 µM |
| CC(=O)OC[C@H]1O[C@@H]2Oc3c(c(=O)n(C)c(=O)n3C)S[C@@H]2[C@@H](OC(C)=O)[C@H]1OC(C)=O |  | VERO | 61 µM |
| CCCCCCCCCCCCCCCCCCOCCOP(=O)(O)CO[C@H](CO)Cn1ccc(N)nc1=O |  | MRC-5 | 0.001 µM |
| CC1(C)OCC2(CO[C@@H](n3ccc(NC(=O)c4ccccc4)nc3=O)C2)O1 |  | CCL18 | >100 µM |
| OCCCCn1cc(Cn2ncc3c(NCc4ccccc4)ncnc32)nn1 | VWM1837 | E6SM | >400 µg/mL |
| Cc1ccn2c(C3OCCS3)cnc2c1 | VMW 1837 (TK+/TK-) | E6SM | >1000 µM |
| O=C(c1ccncc1)n1c(-c2ccccc2Cl)nc2ccccc21 | KOS |  | >20 µg/mL |
| O=c1[nH]cnc2c1ncn2C[C@H]1C[C@H]1[C@H](O)CO |  | VERO | >50 µM |
| Cc1cccn2c(C3SCCS3)cnc12 | B2006 (TK-) | E6SM | >1000 µM |
| CC(=O)OC[C@H]1O[C@@H](n2cc(-c3cc(-c4ccc(C(C)(C)C)cc4)no3)c(=O)[nH]c2=O)CC[C@@H]1O |  |  | >0.06 µg/mL |
| C=C1[C@H](CO)[C@H]1Cn1cnc2c(N)nc(N)nc21 |  |  | >100 µM |
| O=C(Nc1ccn([C@H]2C[C@](O)(CO)CO2)c(=O)n1)c1ccccc1 |  | CCL18 | >100 µM |
| CC(=O)OCCOCN1C(=N)/C(=C(\C)O)C(N)=NS1(=O)=O | McIntyre | E6SM | >400 µg/mL |
| CCCCCCCCCCCCCCCCOCCCOP(=O)(O)OCC(CO)OCn1cnc2c(=O)[nH]c(N)nc21 |  | MRC-5 | 0.023 µM |
| O=C(N/C(C(=O)N1CCCCC1)=C(/Cl)c1ccccc1)c1ccccc1 |  | VERO | >81 µM |
| CCOC(=O)C1=CN(COCCO)S(=O)(=O)NC1=O | McIntyre | E6SM | >400 µg/mL |
| Nc1ccn([C@@H]2CC[C@H](CO)O2)c(=S)n1 |  |  | >100 µM |
| CC(=O)NC1C(O)OC(CO)C(O)C1OC1OC(C(=O)[O-])C(OC2OC(CO)C(O)C(OC3OC(C(=O)[O-])C(O)C(O)C3O)C2NC(C)=O)C(O)C1O.[Na+].[Na+] | McIntyre |  | >400 µg/mL |
| CC(=O)O[C@@H]1[C@@H](OC(C)=O)[C@H](C)O[C@@H]2Oc3c(c(=O)n(C)c(=O)n3C)S[C@@H]21 |  | VERO | >100 µM |
| Nc1nc2c(ncn2CCCCO)c(=O)[nH]1 |  | VERO | 0.6 µM |
| CCCCCC[C@@H]([C@H](C)O)n1cnc2c(N)ncnc21 |  | HELA F | <50 µM |
| OCCCCn1cc(Cn2ncc3c(SCc4ccccc4)ncnc32)nn1 | VWM1837 | E6SM | >400 µg/mL |
| C=C1[C@H](CO)[C@H]1Cn1cnc2c(Cl)nc(N)nc21 |  |  | >100 µM |
| Nc1ccn([C@@H]2OCC(CO)=C2F)c(=O)n1 |  |  | >100 µg/mL |
| O=c1c2cccc(Cl)c2[nH]c2cc(O)cc(O)c12 |  | VERO | 19 µM |
| O=c1[nH]cnc2c1ncn2C[C@H]1C[C@H]1CO |  | VERO | >50 µM |
| Nc1nc2c(ncn2[C@@H]2C=C[C@H](CO)[C@@H](O)C2)c(=O)[nH]1 | KOS |  | 0.002 µg/mL |
| C=C1[C@H](CO)OC[C@@H]1n1ccc(=O)[nH]c1=O |  |  | >100 µg/mL |
| CC(=O)OCCOCN1C=CC(=O)N(COCCO)S1(=O)=O | McIntyre | E6SM | >400 µg/mL |
| CNc1ncnc2c1cnn2Cc1cn(CCCCO)nn1 | B2006 (TK-) | E6SM | >400 µg/mL |
| Nc1nc2c(ncn2COC(CO)CO)c(=O)[nH]1 |  | MRC-5 | 0.032 µM |
| CC(=O)OC1CC2(CO1)COC(C)(C)O2 |  | CCL18 | >100 µM |
| Cc1cn([C@H]2C[C@H](N=[N+]=[N-])[C@@H]([C@@H](C)O)O2)c(=O)[nH]c1=O |  |  | 150 µg/mL |
| Nc1ncnc2c1ncn2[C@@H]1C[C@H](NC=O)[C@@H](O)[C@H]1O |  | HFF | >100 µg/mL |
| Cc1cn([C@@H]2C=C(CO)[C@@H](CO)O2)c(=O)[nH]c1=O |  |  | 33 µg/mL |
| O=C(c1ccncc1)n1c(-c2ccc(O)cc2)nc2ccccc21 | KOS |  | >4 µg/mL |

The last 5 rows once more:

structure | strain | cell line | value
CC(=O)OC1CC2(CO1)COC(C)(C)O2 |  | CCL18 | >100 µM
Cc1cn([C@H]2C[C@H](N=[N+]=[N-])[C@@H]([C@@H](C)O)O2)c(=O)[nH]c1=O |  |  | 150 µg/mL
Nc1ncnc2c1ncn2[C@@H]1C[C@H](NC=O)[C@@H](O)[C@H]1O |  | HFF | >100 µg/mL
Cc1cn([C@@H]2C=C(CO)[C@@H](CO)O2)c(=O)[nH]c1=O |  |  | 33 µg/mL
O=C(c1ccncc1)n1c(-c2ccc(O)cc2)nc2ccccc21 | KOS |  | >4 µg/mL